Results of unrelated studies side by side (data: NIAID ChemDB).

Common to all: tests in culture; species: Mycobacterium bovis BCG

Lines come from different laboratories, so protocols vary. A number after MIC or MFC names an inhibition level or a share of isolates. Blank or dashed fields: not listed here.

SMILES,changes,strain or isolate,endpoint,conditions,method,result
FC(F)(F)c1ccc(N2CCC3(CCN(c4ccc(Nc5ncnc6cc[nH]c56)cc4)CC3)CC2)cc1,-,-,MIC50,-,luminescence,>50 µM
CCCCCCSCCCCCCCCCCCCC#CC(=O)O,-,Pasteur,MIC,-,-,4.4 µM
CCc1nc2ccc(Cl)cn2c1C(=O)NCc1ccc(N2CCC(c3ccc(OC(F)(F)F)cc3)CC2)cc1,-,-,MIC50,-,broth dilution,0.0016 µM
C[C@H]1COC2(CCN(c3nc(=O)c4cc(C(F)(F)F)cc([N+](=O)[O-])c4s3)CC2)O1,DprE1 mutant (E221Q),-,MIC,-,fluorescence,0.018 µM
Fc1cc(Nc2ncnc3ccccc23)ccc1N1CCN(c2ccc(C(F)(F)F)cc2)CC1,-,-,MIC50,-,luminescence,>50 µM
CCCCCCCCCCCCCC#CC(=O)OCCO,-,mc22421,MIC99,-,-,1 µM
CC1=C[C@H](OC(=O)c2ccccc2)C2[C@](C)(CC[C@@]2(O)C(C)C)CC1=O,-,Pasteur,MIC,-,-,25 µg/mL
CCCCCCCCCCCCCCCC#CC(=O)OCCO,-,Pasteur,MIC,-,-,1.9 µM
CCc1cn(C2OC(CO)CC2F)c(=O)[nH]c1=O,-,-,MIC25,-,resazurin,100 µg/mL
FS(F)(F)(F)(F)c1ccc(CCNc2ncnc3ccccc23)cc1,-,-,MIC50,-,luminescence,>20 µM
COc1cc(C(=O)O[C@H]2C=C(C)/C(=C\CO)C[C@@]3(C)CC[C@@](O)(C(C)C)C23)ccc1O,-,Pasteur,MIC,-,-,>50 µg/mL
CCCCCCCCCCCCCCCCC#CC(=O)O,-,mc22421,MIC99,-,-,10.6 µM
FC(F)(F)Oc1cccc(CCNc2ncnc3ccoc23)c1,-,-,MIC50,-,luminescence,>20 µM
CCc1n[nH]c(=S)n1N,-,-,MIC,48 h,broth dilution / resazurin,62.5 µg/mL
O=C(NCCCOCCOCCOCCNC(=O)c1ccc2c(c1)B(O)OC2)c1ccc2c(c1)B(O)OC2,-,-,MIC,-,visual reading / absorbance,1560 µM
Cc1c(CN2CCN(C)CC2)cc(-c2ccc(Cl)cc2)n1-c1ccc(Cl)cc1,L320P S258G,M8,MIC,-,-,15 µM
OC1(c2ccc(F)cc2)CCN(c2ccc(Nc3ncnc4ccccc34)cc2)CC1,-,-,MIC50,-,luminescence,>50 µM
CNO,-,-,MIC100,-,visual reading,<41.8 µg/mL
COc1cc(C(=O)O[C@H]2C[C@@]3(C)O[C@H]3C[C@@]3(C)CC[C@@](O)(C(C)C)C23)ccc1O,-,Pasteur,MIC,-,-,50 µg/mL
FC(F)(F)c1ccc(CCNc2ncnc3ccccc23)cc1,-,-,MIC50,-,luminescence,>20 µM
CC(C)CCSc1ccc(NC(=S)Nc2ccc(SCCC(C)C)cc2)cc1,-,NCTC 5692 ethR::hyg,MIC,-,-,2.5 µg/mL
CC(C)[C@]1(C)CC[C@]2(C)C=CC(C)(C)C[C@H](OC(=O)c3ccccc3)C12,-,Pasteur,MIC,-,-,50 µg/mL
CCCCCCCCCCCCCC#CC(=O)OCC(O)CO,-,mc22421,MIC99,-,-,1 µM
COc1cc(C(=O)OC2CC(C)=CCC3(C)CCC(O)(C(C)C)C23)ccc1O,-,Pasteur,MIC,-,-,6.25 µg/mL
COc1ccc(CCNc2ncnc3ccccc23)cc1,-,-,MIC50,-,luminescence,>10 µM
CCCCCCCCCCCCSCC#CC(=O)O,-,mc22421,MIC99,-,-,4.6 µM
FC(F)(F)c1ccc(Oc2ccc(Nc3ncnc4cc(C(F)(F)F)ccc34)cc2)cc1,-,-,MIC50,-,luminescence,>20 µM
O=C(C1CCN(c2nnc(-n3cccc3)s2)CC1)N1CCC(Cc2ccccc2)CC1,-,-,MIC,-,fluorescence,1.6 µM
COc1ccc(/C(C)=N/NC(N)=S)cc1,-,Carrying pMV261,MIC,-,-,0.25 µg/mL
Fc1ccc(N2CCN(c3ccc(Nc4ncnc5ccccc45)cc3)CC2)cc1,-,-,MIC50,-,luminescence,>50 µM
O=c1[nH]c(=S)c(CO)cn1C1OC(CO)C(O)C1O,-,-,MIC100,-,resazurin,100 µg/mL
CCc1ccc(-c2cc(CN3CCOCC3)c(C)n2-c2ccc(F)cc2)cc1,L320R E466K I585V,M1,MIC,-,-,0.63 µM
Clc1ccc(CCNc2ncnc3ccsc23)cc1,-,-,MIC50,-,luminescence,>50 µM
CCc1ccccc1OCCCON1C(N)=NC(N)=NC1(C)C,Thymidylate synthase (thyA) overexpressing,-,MIC,-,fluorescence,<1.4 µM
CC(C)[C@]1(O)CC[C@]2(C)C[C@@H]3O[C@]3(C)C[C@H](OC(=O)c3ccccc3)C21,-,Pasteur,MIC,-,-,50 µg/mL
FC(F)(F)c1ccc(CNc2ncnc3ccccc23)cc1,-,-,MIC50,-,luminescence,>20 µM
CC(C)[C@]1(O)CC[C@]2(C)C[C@@H]3O[C@]3(C)C[C@H](OC(=O)c3ccc(O)cc3)C21,-,Pasteur,MIC,-,-,50 µg/mL
FC(F)(F)Oc1ccc(Oc2ccc(Nc3ncnc4cc(C(F)(F)F)ccc34)cc2)cc1,-,-,MIC50,-,luminescence,>50 µM
CCOC(=O)NC(=O)c1ccsc1NC(=O)c1nc2ccccc2s1,-,-,MIC99,-,turbidity,3 µg/mL
FC(F)(F)c1cccc(Oc2ccc(CNc3ncnc4ccccc34)cn2)c1,-,-,MIC50,-,luminescence,>20 µM
CCc1cn(C2OC(CO)C(Br)C2F)c(=O)[nH]c1=O,-,-,MIC60,-,resazurin,10 µg/mL
Fc1ccc2c(Nc3ccc(Oc4ccc(C(F)(F)F)cc4)cc3)ncnc2c1,-,-,MIC50,-,luminescence,>20 µM
CC1=C[C@H](OC(=O)c2ccccc2)C2[C@](C)(CC[C@@]2(O)C(C)C)C/C1=C/CO,-,Pasteur,MIC,-,-,50 µg/mL
FC(F)(F)Oc1ccc(C2CCN(c3ccc(CNc4ncnc5ccsc45)cc3)CC2)cc1,-,-,MIC50,-,luminescence,>20 µM
C#CCCCCCCCCCCCCC#CC(=O)O,-,mc22421,MIC99,-,-,1.2 µM

The last 4 rows once more:

Fc1ccc2c(Nc3ccc(Oc4ccc(C(F)(F)F)cc4)cc3)ncnc2c1 ; endpoint: MIC50 ; method: luminescence ; result: >20 µM
CC1=C[C@H](OC(=O)c2ccccc2)C2[C@](C)(CC[C@@]2(O)C(C)C)C/C1=C/CO ; strain or isolate: Pasteur ; endpoint: MIC ; result: 50 µg/mL
FC(F)(F)Oc1ccc(C2CCN(c3ccc(CNc4ncnc5ccsc45)cc3)CC2)cc1 ; endpoint: MIC50 ; method: luminescence ; result: >20 µM
C#CCCCCCCCCCCCCC#CC(=O)O ; strain or isolate: mc22421 ; endpoint: MIC99 ; result: 1.2 µM